How the values were obtained:
Experiment in all cases: ELISA, grade 0-2 vs wildtype (2 similar, 1 diminished)
[1] = target: fHbp ID 22 E248A mutant (Neisseria meningitidis)
[2] = target: fHbp ID 22 R80A mutant (Neisseria meningitidis)
[3] = target: fHbp ID 22 D211A mutant (Neisseria meningitidis)
[4] = target: fHbp ID 22 E218A mutant (Neisseria meningitidis)
[5] = target: fHbp ID 77 K113A mutant (Neisseria meningitidis)
[6] = target: fHbp ID 22 Q126A mutant (Neisseria meningitidis)
[7] = target: fHbp ID 77 D121A mutant (Neisseria meningitidis)
[8] = target: fHbp ID 22 Q38A mutant (Neisseria meningitidis)
[9] = target: fHbp ID 22 E202A mutant (Neisseria meningitidis)
[10] = target: fHbp ID 22 D201A mutant (Neisseria meningitidis)
[11] = target: fHbp ID 77 K119A mutant (Neisseria meningitidis)
[12] = target: fHbp ID 15 E241K mutant (Neisseria meningitidis)
[13] = target: fHbp ID 1 E218A/E239A double mutant (Neisseria meningitidis) (UniProt E6MV22)
[14] = target: fHbp ID 1 E218A mutant (Neisseria meningitidis) (UniProt E6MV22)
[15] = target: fHbp ID 77 R41S/D121A double mutant (Neisseria meningitidis)
[16] = target: fHbp ID 1 Q87A mutant (Neisseria meningitidis) (UniProt E6MV22)
[17] = target: fHbp ID 1 Q113A mutant (Neisseria meningitidis) (UniProt E6MV22)
[18] = target: fHbp ID 77 R41S/K119A double mutant (Neisseria meningitidis)
[19] = target: fHbp ID 1 R130A mutant (Neisseria meningitidis) (UniProt E6MV22)
[20] = target: fHbp ID 77 R41S/K113A double mutant (Neisseria meningitidis)

anti-fHbp monoclonal antibody JAR 35
percent decrease in MAb binding compared with wildtype [1]: < 30%
percent decrease in MAb binding compared with wildtype [2]: < 30%
percent decrease in MAb binding compared with wildtype [3]: < 30%
percent decrease in MAb binding compared with wildtype [4]: < 30%

anti-fHbp monoclonal antibody JAR 31
percent decrease in mAb binding compared with wildtype fHbp [5]: < 30%
percent decrease in mAb binding compared with wildtype fHbp [6]: < 30%
percent decrease in mAb binding compared with wildtype fHbp [7]: < 30%
percent decrease in mAb binding compared with wildtype fHbp [8]: < 30%
percent decrease in mAb binding compared with wildtype fHbp [9]: < 30%
percent decrease in mAb binding compared with wildtype fHbp [10]: > 30%
percent decrease in mAb binding compared with wildtype fHbp [11]: < 30%

anti-fHbp monoclonal antibody JAR 5 (murine, IgG2b)
percent decrease in mAb binding compared with wildtype fHbp [12]: < 30%
percent decrease in MAb binding compared with wildtype [13]: < 30%

anti-fHbp monoclonal antibody JAR 4 (murine)
percent decrease in MAb binding compared with wildtype [14]: < 30%
percent decrease in MAb binding compared with wildtype [15]: > 30%
percent decrease in mAb binding compared with wildtype fHbp [6]: < 30%
percent decrease in mAb binding compared with wildtype fHbp [16]: < 30%
percent decrease in mAb binding compared with wildtype fHbp [17]: < 30%
percent decrease in MAb binding compared with wildtype [18]: > 30%
percent decrease in MAb binding compared with wildtype [19]: > 30%
percent decrease in mAb binding compared with wildtype fHbp [8]: > 30%
percent decrease in mAb binding compared with wildtype fHbp [9]: > 30%
percent decrease in mAb binding compared with wildtype fHbp [10]: > 30%
percent decrease in MAb binding compared with wildtype [20]: > 30%

— patent US20110256180A1 (CHILDREN S HOSPITAL AND RESEARCH CENTER AT OAKLAND, published 2011)
